Pooled drug test results. Numbers come from NIAID ChemDB, via PubChem.

Common to all: tests in culture; species: HIV-1; cells: MT-4; read-out: EC50

Neighbouring rows are from separate reports. ECn is the concentration giving n% inhibition of infection, replication or growth. Blank or dashed fields: not listed here.

{"structure": "CC(C)(c1cc2cnccc2o1)N1CCN(C[C@@H](O)C[C@@H](Cc2ccccc2)C(=O)N[C@H]2c3ccccc3OC[C@H]2O)[C@H](C(=O)NCc2ccccc2)C1", "strain or isolate": "NL4-3", "read by": "p24", "result": "<0.125 µM"}
{"structure": "C#C[C@]1(CO)O[C@@H](n2cnc3c(N)nc(F)nc32)C[C@@H]1O", "strain or isolate": "NL4-3", "read by": "p24 / luminescence", "result": "0.00098 µM"}
{"structure": "Cc1cn([C@@H]2O[C@H](CO[Si](C)(C)C(C)(C)C)C3(OS(=O)(=O)C=C3N)[C@H]2O[Si](C)(C)C(C)(C)C)c(=O)n(C)c1=O", "strain or isolate": "IIIB", "read by": "syncytia", "result": "0.06 µM"}
{"structure": "CC(C)(c1cc2cnccc2o1)N1CCN(C[C@@H](O)C[C@@H](Cc2ccccc2)C(=O)N[C@H]2c3ccccc3OC[C@H]2O)[C@H](C(=O)NCCC(F)(F)F)C1", "strain or isolate": "NL4-3", "read by": "p24", "result": "<0.062 µM"}
{"structure": "CCN[C@H]1CO[C@@H]2OC[C@H](OC(=O)N[C@@H](Cc3ccccc3)[C@H](O)CN(CC(C)C)S(=O)(=O)c3ccc4nc(NC5CC5)sc4c3)[C@@H]21", "strain or isolate": "NL4-3", "read by": "p24 / luminescence", "result": "0.0104 µM"}
{"structure": "C=CC(C)(C)c1cc(/C=C/C(=O)c2ccc(O)cc2)c(OC)cc1O", "strain or isolate": "IIIB", "read by": "cytopathic effect / MTT", "result": ">20 µg/mL"}
{"structure": "Cc1nn(-c2ccccc2)c2c1nnn2C(=O)NC(C)(C)C", "read by": "cytopathic effect / MTT", "result": ">200 µM"}
{"structure": "CC(C)=CCN1c2cc(Cl)cc3[nH]c(=S)n(c23)C[C@@H]1C", "changes": "RT-K70R", "result": "<0.1 µM"}
{"structure": "CC(C)=CCOCn1c(Cc2cc(C)cc(C)c2)c(C(C)C)c(=O)[nH]c1=O", "strain or isolate": "IIIB", "changes": "RT-Y181C", "read by": "cytopathic effect / MTT", "result": "15 µM"}
{"structure": "CC1(C)[C@@H](O[C@H]2O[C@H](C(=O)O)[C@@H](O)[C@H](O)[C@H]2O[C@@H]2O[C@H](C(=O)O)[C@@H](O)[C@H](O)[C@H]2O)CC[C@]2(C)[C@H]3C(=O)C=C4[C@@H]5C[C@@](C)(C(=O)O)CC[C@]5(C)CC[C@@]4(C)[C@]3(C)CC[C@@H]12", "strain or isolate": "EVK", "read by": "ELISA", "result": "<500 µg/mL"}
{"structure": "Cc1cn([C@H]2C[C@H](N=[N+]=[N-])[C@@H](CO)O2)c(=O)[nH]c1=O", "strain or isolate": "IIIB", "read by": "cytopathic effect / MTT", "result": "<0.001 µg/mL"}
{"structure": "c1cc(CN2CCCNCCNCCCNCC2)ccc1CN1CCCNCCNCCCNCC1", "strain or isolate": "NL4 Suc-HSA-resistant", "read by": "cytopathic effect / MTT", "result": "0.01 µg/mL"}
{"structure": "Cc1cn([C@@H]2O[C@H](CO[Si](c3ccccc3)(c3ccccc3)C(C)(C)C)C3(OS(=O)(=O)C=C3N)[C@H]2O[Si](c2ccccc2)(c2ccccc2)C(C)(C)C)c(=O)[nH]c1=O", "strain or isolate": "IIIB", "read by": "syncytia", "result": ">150 µM"}
{"structure": "CC1=C(/C=C/C(C)=C/C=C/C(C)=C/C(=O)O)C(C)(C)CCC1", "strain or isolate": "HTLV-III", "read by": "plaque count", "result": "<5 µg/mL"}
{"structure": "Cc1cc(C#N)cc(C)c1Oc1nc(Nc2ccc(C#N)cc2)ncc1SCC(=O)N1CCSCC1", "changes": "E138K", "read by": "MTT", "result": "0.0472 µM"}
{"structure": "CCOC(=O)c1cn(Cc2ccncc2)c(Sc2cccc(C)c2)c1C(C)C", "strain or isolate": "IIIB", "read by": "cytopathic effect / MTT", "result": "1.2 µM"}
{"structure": "O=c1cc(Cc2c(F)cccc2F)nc(SC2CCCC2)[nH]1", "strain or isolate": "IIIB", "read by": "p24", "result": "<0.3 µM"}
{"structure": "Cc1ccc(Sc2c(C(C)C)c(COC(N)=O)cn2Cc2ccncc2)cc1", "strain or isolate": "IIIB", "read by": "cytopathic effect / MTT", "result": "42 µM"}
{"structure": "Cc1cn([C@@H]2O[C@H](CO[Si](C)(C)C(C)(C)C(C)C)C3(OS(=O)(=O)C=C3N)[C@H]2O[Si](C)(C)C(C)(C)C)c(=O)n(C)c1=O", "strain or isolate": "IIIB", "read by": "syncytia", "result": "2 µM"}
{"structure": "Cc1cc(N=Cc2ccccc2)ccc1N1C(=O)c2ccc(Cl)cc2C1=O", "strain or isolate": "IIIB", "read by": "MTT / absorbance", "result": "0.287 µM"}
{"structure": "COCOc1ccc(/C=C/C(=O)c2c(O)cc(OCOC)cc2OCOC)cc1", "strain or isolate": "IIIB", "read by": "cytopathic effect / MTT", "result": ">20 µg/mL"}
{"structure": "O=C1CN(C(=O)c2cc(-c3cc(F)cc(Cl)c3)n(-c3ccc(F)c(Cl)c3)n2)CN1", "strain or isolate": "NL4-3", "changes": "Lu164", "read by": "luciferase / RT activity", "result": "0.0009 µM"}
{"structure": "COc1ccc(-c2coc3cc(O)ccc3c2=O)cc1", "strain or isolate": "IIIB", "read by": "MTT", "result": ">100 µg/mL"}
{"structure": "Cc1cc(NC(=S)c2ccccc2)ccc1N1C(=O)c2ccc(Cl)cc2C1=O", "strain or isolate": "IIIB", "read by": "MTT / absorbance", "result": "0.632 µM"}
{"structure": "CCOCn1c(Cc2ccccc2)c(C(C)C)c(=O)[nH]c1=O", "strain or isolate": "IIIB", "changes": "RT-K103N Y181C", "read by": "cytopathic effect / MTT", "result": ">100 µM"}
{"structure": "Cc1nn(-c2ccccc2)c2nnn(N)c12", "read by": "cytopathic effect / MTT", "result": ">200 µM"}
{"structure": "CC(C)=CCc1c(O)cc2oc(-c3ccc(O)cc3)c(O)c(=O)c2c1O", "strain or isolate": "IIIB", "read by": "cytopathic effect / MTT", "result": ">20 µg/mL"}
{"structure": "Cc1cc(NC(=O)Cc2ccc3ccccc3c2)ccc1N1C(=O)c2ccc(Cl)cc2C1=O", "strain or isolate": "IIIB", "read by": "MTT / absorbance", "result": "0.02 µM"}
{"structure": "CC(C)=CCc1cc([C@@H]2CC(=O)c3c(O)cc(O)cc3O2)c(CC=C(C)C)c(O)c1O", "strain or isolate": "IIIB", "read by": "MTT", "result": ">100 µg/mL"}
{"structure": "CCOC(=O)c1cn(Cc2ccncc2)c(Sc2cccc(Cl)c2)c1C(C)C", "strain or isolate": "IIIB", "read by": "cytopathic effect / MTT", "result": "2.1 µM"}
{"structure": "COc1ccc([C@@H]2COc3c(ccc4c3C=CC(C)(C)O4)C2)c(OC)c1", "strain or isolate": "IIIB", "read by": "MTT", "result": ">100 µg/mL"}
{"structure": "CC(C)c1c(CO)cn(Cc2ccc(N)cc2)c1Sc1cc(Cl)cc(Cl)c1", "strain or isolate": "IIIB", "read by": "cytopathic effect / MTT", "result": "3 µM"}
{"structure": "CC(C)OC(=O)OCCP(=O)(CO[C@H](C)Cn1cnc2c(N)ncnc21)OCOC(=O)OC(C)C.O=C(O)/C=C/C(=O)O", "strain or isolate": "NL4-3", "read by": "p24 / luminescence", "result": "0.3057 µM"}
{"structure": "CC(=O)Oc1ccc(/C=C/C(=O)O[C@H](C(=O)O)[C@H](OC(=O)/C=C/c2ccc(OC(C)=O)c(OC(C)=O)c2)C(=O)O)cc1OC(C)=O", "strain or isolate": "IIIB", "read by": "cytopathic effect / MTT", "result": "3.8 µM"}
{"structure": "Nc1ncnc2c1ncn2[C@@H]1C[C@](F)(CO)[C@H]1CO", "strain or isolate": "IIIB", "read by": "cytopathic effect", "result": "3.73 µM"}
{"structure": "Cc1cn([C@H]2C[C@H](N=[N+]=[N-])[C@@H](CO)O2)c(=O)[nH]c1=O", "strain or isolate": "IIIB", "read by": "p24", "result": "<0.04 µM"}
{"structure": "O=c1[nH]c(=O)n(COCc2ccccc2)c(Sc2ccc(F)cc2F)c1C1CC1", "changes": "E138K", "read by": "MTT", "result": ">8.38 µM"}
{"structure": "Cc1cc(N=Cc2ccc(O)cc2)ccc1N1C(=O)c2ccc(Cl)cc2C1=O", "strain or isolate": "IIIB", "read by": "MTT / absorbance", "result": "0.263 µM"}
{"structure": "CCn1nnc2c(C)nn(-c3ccccc3)c21", "read by": "cytopathic effect / MTT", "result": ">145 µM"}
{"structure": "CC(C)CN(C[C@@H](O)[C@H](Cc1ccccc1)NC(=O)O[C@H]1CCOC1)S(=O)(=O)c1ccc(N)cc1", "strain or isolate": "NL4-3", "read by": "p24 / luminescence", "result": "0.0294 µM"}
{"structure": "Cc1ccnc2c1NC(=O)c1cccnc1N2C1CC1", "changes": "RT-L100I", "read by": "cytopathic effect / MTT", "result": "0.316 µM"}
{"structure": "CC(C)c1nc(COC(N)=O)n(Cc2ccncc2)c1S(=O)(=O)c1cc(Cl)cc(Cl)c1", "read by": "cytopathic effect / MTT", "result": "0.5 µg/mL"}
{"structure": "CCOC(=O)c1cn(Cc2ccncc2)c(Sc2cccc(F)c2)c1C(C)C", "strain or isolate": "IIIB", "read by": "cytopathic effect / MTT", "result": "3.2 µM"}
{"structure": "COc1cc2c3cc1Oc1c(O)c(OC)cc4c1C(Cc1ccc(cc1)Oc1cc(ccc1O)CC3N(C)CC2)N(C)CC4", "strain or isolate": "IIIB", "read by": "cytopathic effect / visual reading", "result": "<31.3 µg/mL"}
{"structure": "Cc1ccc(C(=O)Nc2ccc(N3C(=O)c4ccc(Cl)cc4C3=O)c(C)c2)cc1", "strain or isolate": "IIIB", "read by": "MTT / absorbance", "result": "0.017 µM"}
{"structure": "Cc1nn(C)c2c1nnn2Cc1ccccc1", "read by": "cytopathic effect / MTT", "result": ">200 µM"}
{"structure": "CC(C)(c1cc2cnccc2o1)N1CCN(C[C@@H](O)C[C@@H](Cc2ccccc2)C(=O)N[C@H]2c3ccccc3OC[C@H]2O)[C@H](C(=O)Nc2ccccc2)C1", "strain or isolate": "NL4-3", "read by": "p24", "result": "<0.25 µM"}
{"structure": "Cc1cn([C@@H]2O[C@H](CO[Si](c3ccccc3)(c3ccccc3)C(C)(C)C)C3(OS(=O)(=O)C=C3N)[C@H]2O[Si](C)(C)C(C)(C)C)c(=O)n(C)c1=O", "strain or isolate": "IIIB", "read by": "syncytia", "result": "18 µM"}
{"structure": "CCOC(=O)c1cn(Cc2ccc([N+](=O)[O-])cc2)c(Sc2cc(Cl)cc(Cl)c2)c1C(C)C", "strain or isolate": "IIIB", "read by": "cytopathic effect / MTT", "result": ">200 µM"}
{"structure": "Cc1cn([C@H]2C[C@H](N=[N+]=[N-])[C@@H](CO)O2)c(=O)[nH]c1=O", "strain or isolate": "HXB2-D294 (RT-P294S)", "changes": "RT-P294S", "read by": "RT activity", "result": "0.013 µM"}
{"structure": "CC(C)(C)OC(=O)N[C@@H](Cc1ccccc1)[C@@H](O)C[C@@H](Cc1ccc(OCCN2CCOCC2)cc1)C(=O)N[C@H]1c2ccccc2C[C@H]1O", "strain or isolate": "IIIB", "read by": "antigen", "result": "<0.025 µM"}
{"structure": "Cc1cc(NS(=O)(=O)c2ccc(Cl)cc2)ccc1N1C(=O)c2ccc(Cl)cc2C1=O", "strain or isolate": "IIIB", "read by": "MTT / absorbance", "result": "0.003 µM"}
{"structure": "CCOC(=O)c1oc2cc(O)cc(O)c2c(=O)c1Oc1ccc(OCc2ccccc2)cc1OCc1ccccc1", "strain or isolate": "IIIB", "read by": "cytopathic effect / MTT", "result": ">25 µg/mL"}
{"structure": "CCC[C@]1(CCc2ccccc2)CC(O)=C([C@@H](CC)c2cccc(NS(=O)(=O)c3ccc(C(F)(F)F)cn3)c2)C(=O)O1", "strain or isolate": "NL4-3", "read by": "p24 / luminescence", "result": "0.0332 µM"}
{"structure": "Cc1c(Cc2c(F)cccc2F)nc(SC2CCCC2)[nH]c1=O", "strain or isolate": "IIIB", "read by": "p24", "result": "<0.15 µM"}
{"structure": "CCOC(=O)c1cn(Cc2ccncc2)c(Sc2ccc(C)cc2)c1C(C)C", "strain or isolate": "IIIB", "read by": "cytopathic effect / MTT", "result": ">60 µM"}
{"structure": "CC(C)=CCc1c(O)ccc(C(=O)/C=C/c2cc(O)c3c(c2)C=CC(C)(C)O3)c1O", "strain or isolate": "IIIB", "read by": "cytopathic effect / MTT", "result": ">20 µg/mL"}

The last 7 rows once more:

structure	strain or isolate	changes	read by	result
CC(C)(C)OC(=O)N[C@@H](Cc1ccccc1)[C@@H](O)C[C@@H](Cc1ccc(OCCN2CCOCC2)cc1)C(=O)N[C@H]1c2ccccc2C[C@H]1O	IIIB	-	antigen	<0.025 µM
Cc1cc(NS(=O)(=O)c2ccc(Cl)cc2)ccc1N1C(=O)c2ccc(Cl)cc2C1=O	IIIB	-	MTT / absorbance	0.003 µM
CCOC(=O)c1oc2cc(O)cc(O)c2c(=O)c1Oc1ccc(OCc2ccccc2)cc1OCc1ccccc1	IIIB	-	cytopathic effect / MTT	>25 µg/mL
CCC[C@]1(CCc2ccccc2)CC(O)=C([C@@H](CC)c2cccc(NS(=O)(=O)c3ccc(C(F)(F)F)cn3)c2)C(=O)O1	NL4-3	-	p24 / luminescence	0.0332 µM
Cc1c(Cc2c(F)cccc2F)nc(SC2CCCC2)[nH]c1=O	IIIB	-	p24	<0.15 µM
CCOC(=O)c1cn(Cc2ccncc2)c(Sc2ccc(C)cc2)c1C(C)C	IIIB	-	cytopathic effect / MTT	>60 µM
CC(C)=CCc1c(O)ccc(C(=O)/C=C/c2cc(O)c3c(c2)C=CC(C)(C)O3)c1O	IIIB	-	cytopathic effect / MTT	>20 µg/mL